Results: PMC7150849 (Viruses, 2020)

Experiments:
Format in all cases: cell-based
[1] = test system: HIV-1 92RW020N126K pseudovirus; settings: for IC50: 92RW020N126K (subtype A, CCR5-tropic) pseudovirus, 100 TCID50, TZM-bl cells 48 h, luciferase, mean ± SD, three independent experiments; for FC (fold change in the IC50 relative to the WT level): 92RW020N126K vs 92RW020WT
[2] = test system: HIV-1 JRFLN126K pseudovirus; settings: for IC50: JRFLN126K (subtype B, CCR5-tropic) pseudovirus, 100 TCID50, TZM-bl cells 48 h, luciferase, mean ± SD, three independent experiments; for FC (fold change in the IC50 relative to the WT level): JRFLN126K vs JRFLWT
[3] = test system: HIV-1 ZM109F.PB4N126K pseudovirus; settings: for IC50: ZM109F.PB4N126K (subtype C, CCR5-tropic) pseudovirus, 100 TCID50, TZM-bl cells 48 h, luciferase, mean ± SD, three independent experiments; for FC (fold change in the IC50 relative to the WT level): ZM109F.PB4N126K vs ZM109F.PB4WT
[4] = test system: HIV-1 QH0692N126K pseudovirus; settings: for IC50: QH0692N126K (subtype B, CCR5-tropic) pseudovirus, 100 TCID50, TZM-bl cells 48 h, luciferase, mean ± SD, three independent experiments; for FC (fold change in the IC50 relative to the WT level): QH0692N126K vs QH0692WT
[5] = test system: HIV-1 REJO4541N126K pseudovirus; settings: for IC50: REJO4541N126K (subtype B, CCR5-tropic) pseudovirus, 100 TCID50, TZM-bl cells 48 h, luciferase, mean ± SD, three independent experiments; for FC (fold change in the IC50 relative to the WT level): REJO4541N126K vs REJO4541WT
[6] = test system: HIV-1 NL4-3N126K pseudovirus; settings: for IC50: NL4-3N126K (subtype B, CXCR4-tropic) pseudovirus, 100 TCID50, TZM-bl cells 48 h, luciferase, mean ± SD, three independent experiments; for FC (fold change in the IC50 relative to the WT level): NL4-3N126K vs NL4-3WT
[7] = test system: HIV-1 AC10.29N126K pseudovirus; settings: for IC50: AC10.29N126K (subtype B, CCR5-tropic) pseudovirus, 100 TCID50, TZM-bl cells 48 h, luciferase, mean ± SD, three independent experiments; for FC (fold change in the IC50 relative to the WT level): AC10.29N126K vs AC10.29WT
[8] = test system: HIV-1 ZM53M.PB12N126K pseudovirus; settings: for IC50: ZM53M.PB12N126K (subtype C, CCR5-tropic) pseudovirus, 100 TCID50, TZM-bl cells 48 h, luciferase, mean ± SD, three independent experiments; for FC (fold change in the IC50 relative to the WT level): ZM53M.PB12N126K vs ZM53M.PB12WT

Compound | IC50 [1] [nM] | FC (fold change in the IC50 relative to the WT level) [1] | IC50 [2] [nM] | FC (fold change in the IC50 relative to the WT level) [2] | IC50 [3] [nM] | FC (fold change in the IC50 relative to the WT level) [3] | IC50 [4] [nM] | FC (fold change in the IC50 relative to the WT level) [4] | IC50 [5] [nM] | FC (fold change in the IC50 relative to the WT level) [5] | IC50 [6] [nM] | FC (fold change in the IC50 relative to the WT level) [6] | IC50 [7] [nM] | FC (fold change in the IC50 relative to the WT level) [7] | IC50 [8] [nM] | FC (fold change in the IC50 relative to the WT level) [8]
CC[C@H](C)[C@H](NC(=O)[C@H](CCC(=O)O)NC(=O)[C@H](CCC(=O)O)NC(=O)[C@@H](NC(=O)[C@H](CCCCN)NC(=O)[C@H](CCCCN)NC(=O)[C@@H](NC(=O)[C@H](Cc1ccc(O)cc1)NC(=O)[C@H](CCC(=O)O)NC(=O)[C@H](CCC(=O)O)NC(=O)[C@@H](NC(=O)[C@H](CCCCN)NC(=O)[C@H](CCCCN)NC(=O)[C@H](CCC(=O)O)NC(=O)[C@H](Cc1c[nH]c2ccccc12)NC(=O)[C@H](CCC(=O)O)NC(=O)[C@H](CCC(=O)O)NC(=O)[C@H](Cc1c[nH]c2ccccc12)NC(=O)[C@@H](NC(=O)[C@H](CCSC)NC(=O)[C@H](CCC(=O)O)NC(C)=O)[C@@H](C)O)[C@@H](C)CC)[C@@H](C)O)[C@@H](C)CC)C(=O)N[C@@H](CC(C)C)C(=O)N[C@@H](CCCCN)C(N)=O [HP23] | 3.3 ± 1 | 1.5 | 15.3 ± 0.2 | 2.6 | 1.4 ± 0.3 | 1.8 | 41.9 ± 3 | 1.2 | 5.7 ± 2 | 1.8 | 1.5 ± 0.2 | 2.6 | 1.2 | 1.6 | 1.6 ± 0.3 | 1.3
CC[C@H](C)[C@H](NC(=O)[C@H](CC(C)C)NC(=O)[C@H](CCC(=O)O)NC(=O)[C@H](CCC(=O)O)NC(=O)[C@@H](NC(=O)[C@H](CCCCN)NC(=O)[C@H](CCCCN)NC(=O)[C@@H](NC(=O)[C@H](Cc1ccc(O)cc1)NC(=O)[C@H](CCC(=O)O)NC(=O)[C@H](CCC(=O)O)NC(=O)[C@@H](NC(=O)[C@H](CCCCN)NC(=O)[C@H](CCCCN)NC(=O)[C@H](CC(=O)O)NC(=O)[C@H](Cc1c[nH]c2ccccc12)NC(=O)[C@H](CCC(=O)O)NC(=O)[C@H](CCC(=O)O)NC(=O)[C@H](Cc1c[nH]c2ccccc12)NC(=O)[C@@H](NC(=O)[C@H](CCSC)NC(C)=O)[C@@H](C)O)[C@@H](C)CC)[C@@H](C)O)[C@@H](C)CC)C(=O)N[C@@H](CCCCN)C(=O)N[C@@H](CCCCN)C(=O)N[C@@H](CO)C(N)=O [MTSC22EK] | 14.3 ± 6.8 | – | – | – | 3.3 ± 0.4 | – | 92.2 ± 22.4 | – | 13.2 ± 3.8 | – | 4.9 ± 1.6 | – | 4.1 ± 1.6 | – | 3.2 ± 0.7 | –
CC[C@H](C)[C@H](NC(=O)[C@H](CC(C)C)NC(=O)[C@H](CCC(=O)O)NC(=O)[C@H](CCC(=O)O)NC(=O)[C@@H](NC(=O)[C@H](CCCCN)NC(=O)[C@H](CCCCN)NC(=O)[C@@H](NC(=O)[C@H](Cc1ccc(O)cc1)NC(=O)[C@H](CCC(=O)O)NC(=O)[C@H](CCC(=O)O)NC(=O)[C@@H](NC(=O)[C@H](CCCCN)NC(=O)[C@H](CCCCN)NC(=O)[C@H](CC(=O)O)NC(=O)[C@H](Cc1c[nH]c2ccccc12)NC(=O)[C@H](CCC(=O)O)NC(=O)[C@H](CCC(=O)O)NC(=O)[C@H](Cc1c[nH]c2ccccc12)NC(C)=O)[C@@H](C)CC)[C@@H](C)O)[C@@H](C)CC)C(=O)N[C@@H](CCCCN)C(=O)N[C@@H](CCCCN)C(=O)N[C@@H](CO)C(N)=O [SC22EK] | 1330 ± 766 | 3.1 | 600 ± 93.3 | 1.3 | 79.4 ± 6.9 | 1.8 | 1160 ± 203 | 0.6 | 1280 ± 78.2 | 3.4 | 86.5 ± 1.8 | 1.8 | 248 ± 38.7 | 2.2 | 164 ± 18.7 | 3.5
CC[C@H](C)[C@H](NC(=O)[C@H](CCC(=O)O)NC(=O)[C@H](CCCNC(=N)N)NC(=O)[C@H](CCC(=O)O)NC(=O)[C@H](Cc1c[nH]c2ccccc12)NC(=O)[C@@H](NC(=O)[C@H](CCC(=O)O)NC(=O)[C@H](Cc1c[nH]c2ccccc12)NC(=O)[C@H](CO)NC(C)=O)[C@@H](C)O)C(=O)N[C@@H](CCC(=O)O)C(=O)N[C@@H](CC(N)=O)C(=O)N[C@@H](Cc1ccc(O)cc1)C(=O)N[C@H](C(=O)N[C@@H](CCCNC(=N)N)C(=O)N[C@@H](CCC(N)=O)C(=O)N[C@H](C(=O)N[C@@H](Cc1ccc(O)cc1)C(=O)N[C@@H](CCCNC(=N)N)C(=O)N[C@H](C(=O)N[C@@H](CC(C)C)C(=O)N[C@@H](CCC(=O)O)C(=O)N[C@@H](CCC(=O)O)C(=O)N[C@@H](CO)C(=O)N[C@@H](CCC(N)=O)C(=O)N[C@@H](CCC(=O)O)C(=O)N[C@@H](CCC(N)=O)C(=O)N[C@@H](CCC(N)=O)C(=O)N[C@@H](CC(=O)O)C(=O)N[C@@H](CCCNC(=N)N)C(=O)N[C@@H](CC(N)=O)C(=O)N[C@@H](CCC(=O)O)C(=O)N[C@@H](CCCNC(=N)N)C(=O)N[C@@H](CC(=O)O)C(=O)N[C@@H](CC(C)C)C(=O)N[C@@H](CC(C)C)C(=O)N[C@@H](CCC(=O)O)C(N)=O)[C@@H](C)CC)[C@@H](C)CC)[C@@H](C)O [SFT, sifuvirtide] | 10.9 ± 1.3 | 1.5 | 31.3 ± 12.9 | 3.5 | 4.5 ± 0.4 | 1.7 | 62.5 ± 7.7 | 2.2 | 10.5 ± 1.9 | 1.7 | 5.1 ± 1 | 2.7 | 2.5 ± 0.9 | 1.2 | 2.8 ± 0.9 | 1.3
